Anti-infective test results gathered from many reports (values: NIAID ChemDB through PubChem).

All rows: tests in culture; species: Hepatitis B virus; read-out: EC50

a–b is a range or a potency band. ECn: concentration that inhibits the pathogen or its effect by n%. Conditions beyond the fields shown may differ between rows. Blank or dashed fields: not listed here.

structure	cells	method	strain or isolate	value
COc1ccc(-n2c(C(=O)NCc3cccc(C#N)c3)c3n(c2=O)CCN(C(=O)c2ccc(Br)c(Cl)c2)C3)cc1	HepG2.117	PCR		0.5–5 µM
C[C@@H]1Cc2c(n3ncc(Cc4ccccc4)c3n(-c3ccc(-n4nnnc4C(F)(F)F)cc3)c2=O)CN1C(=O)c1ccc(Br)c(C(F)(F)F)c1	HepG2.117	luminescence		≤0.05 µM
O=C1NNC(=O)c2c(ncn2[C@@H]2O[C@H](CO)[C@@H](O)[C@H]2O)N1	2.2.15	antigen		<30 µM
N#Cc1nc(NC(=O)N2CCc3nn4c(c3C2)C(F)(F)CC[C@H](O)C4)ccc1F	HepG2.2.15	fluorescence		0.022 µM
COc1cc(Nc2ncnc3ccc(-c4cccs4)cc23)ccc1N1CCOCC1	HUH 9B	replicon		<1 µM
Cn1nc2cc(N(CCO)S(=O)(=O)c3cnn(-c4cc(N5CCOCC5)ccn4)c3)ccc2c1C(=O)Nc1ccc(F)c(Cl)c1	HepAD38	PCR		<100 µM
COc1ncc(-c2ccc3ncnc(Nc4ccc(N5CCOCC5)cc4)c3c2)cn1	HUH 9B	replicon		<1 µM
CCOC(=O)C1=C(C)NC(c2ncc(F)cc2F)=NC1c1ccc(F)cc1Cl	HepG2.2.15			0.05 µM
C[C@H](NC(=O)c1c2n(c(=O)n1-c1ccc(OC3CC3)cc1)CCN(C(=O)c1ccc(Br)c(Cl)c1)C2)c1ccc(OC(C)(C)C(N)=O)cc1F	HepG2.117	PCR		0.1–0.5 µM
Cn1nc2cc(NS(C)(=O)=O)ccc2c1C(=O)Nc1ccc(F)c(Cl)c1	HepAD38	PCR		100–1000 µM
Cc1cc(NC(=O)N2CCc3nn4c(c3C2)C(=O)N(C)CC(O)(c2ccccc2)C4)ccc1F	HepG2.2.15	fluorescence		140 µM
COC(=O)C1=C(C)NC(c2ncc(F)cc2F)=N[C@H]1c1ccc(F)cc1Cl	HepG2.2.15			0.06 µM
O=C(Nc1ccc(-c2ccc3ncnc(Nc4ccc(N5CCOCC5)cc4)c3c2)cc1)OCc1ccccc1	HUH 9B	replicon		<1 µM
CCCCOC(=O)C1=C(C)NC(c2ccccn2)=NC1c1ccccc1Cl	HepG2.2.15			>6 µM
CC(C)N(c1ccc(N2CCOCC2)cc1)c1ncnc2ccc(-c3cccs3)cc12	HUH 9B	replicon		1–5 µM
N#CC[C@@]1(O)CCC(F)(F)c2c3c(nn2C1)CCN(C(=O)Nc1ccc(F)c(C#N)c1)C3	HepG2.2.15	fluorescence		0.009 µM
Cn1nc2nc(NS(=O)(=O)C3CC3)ccc2c1C(=O)Nc1ccc(F)c(Cl)c1	HepAD38	PCR		>1000 µM
CC1c2cc(C(=O)O)c(=O)n(C3CC3)c2-c2cc(Cl)c(OCC3CCOCC3)cc2S1(=O)=O	Primary human hepatocytes	antigen / visual reading / absorbance		0.05–0.1 µM
CNC(=O)c1cnc(-n2c(=O)c3c(n4ncc(Cc5ccccc5)c24)CN(C(=O)c2ccc(Br)c(C(F)(F)F)c2)[C@@H](C)C3)cn1	HepG2.117	luminescence		≤0.05 µM
COC(=O)C1=C(C)NC(c2ccccn2)=NC1c1ccccc1Cl	HepG2.2.15			3 µM
C[C@@H]1Cc2nn3c(c2CN1C(=O)Nc1ccc(F)c(C#N)c1)C(=O)N(C)C[C@H](c1ccn[nH]1)C3	HepG2.2.15	fluorescence		37 µM
COc1cc2c(cc1Cl)-c1c(cc(C(=O)O)c(=O)n1C1CC1)C(C)S2(=O)=O	Primary human hepatocytes	antigen / visual reading / absorbance		>0.5 µM
Cn1nc2cc(NS(=O)(=O)c3ccn(CC4CN(C(=O)OC(C)(C)C)C4)n3)ccc2c1C(=O)Nc1ccc(F)c(Cl)c1	HepAD38	PCR		100–1000 µM
C[C@H](NC(=O)c1c2n(c(=O)n1-c1ccc(OC3CC3)cc1)CCN(C(=O)c1ccc(Br)c(Cl)c1)C2)c1ccc(O[C@H](C)C(N)=O)cc1F	HepG2.117	PCR		0.1–0.5 µM
CCOC(=O)Nc1cc2c(cc1OCCCOC)S(=O)(=O)C(C)c1cc(C(=O)O)c(=O)n(C3CC3)c1-2	Primary human hepatocytes	antigen / visual reading / absorbance		>0.5 µM
COc1ccc(CNC(=O)c2c3n(c(=O)n2-c2ccc(OCC(F)(F)F)cc2)CCN(C(=O)c2ccc(Br)c(Cl)c2)C3)c(F)c1	HepG2.117	PCR		0.1–0.5 µM
COCCCOc1cc2c(cc1Cl)-c1c(cc(C(=O)O)c(=O)n1C1CCC1)CS2	Primary human hepatocytes	antigen / visual reading / absorbance		0.05–0.1 µM
CNC(=O)c1cnc(-n2c(=O)c3c(n4ncc(CC(C)C)c24)CN(C(=O)c2ccc(Br)c(C(F)(F)F)c2)[C@H](C)C3)nc1	HepG2.117	luminescence		≤0.05 µM
CN1CC(c2ccnn2C)Cn2nc3c(c2C1=O)CN(C(=O)Nc1ccc(F)c(C#N)c1)CC3	HepG2.2.15	fluorescence		83 µM
N#Cc1ccc(CNC(=O)c2c3n(c(=O)n2-c2ccc(OC4CC4)cc2)CCN(C(=O)c2ccc(Br)c(Cl)c2)C3)c(F)c1	HepG2.117	PCR		0.5–5 µM
C[C@@H]1Cc2c(n3ncc(Cc4ccccc4)c3n(-c3ccc(-c4n[nH]c(=O)n4C)cc3)c2=O)CN1C(=O)c1ccc(Br)c(C(F)(F)F)c1	HepG2.117	luminescence		≤0.05 µM
Cn1cc(S(=O)(=O)Nc2ccc3c(C(=O)Nc4ccc(F)c(Cl)c4)n(C)nc3c2)cn1	HepAD38	PCR / entry		<100 µM
COC(=O)C1=C(c2cccnc2)NC(c2ccccn2)=NC1c1ccccc1Cl	HepG2.2.15			15 µM
CCOCCOc1cc2c(cc1Cl)-c1c(cc(C(=O)OC(C)C)c(=O)n1C1CC1)C(C)S2	Primary human hepatocytes	antigen		0.1–0.5 µM
C[C@H](NC(=O)c1c2n(c(=O)n1-c1ccc(OC3CC3)cc1)CCN(C(=O)c1ccc(Br)c(Cl)c1)C2)c1cccc2nccnc12	HepG2.117	PCR		<0.1 µM
CNC(=O)c1cnc(-n2c(=O)c3c(n4ncc(Cc5ccccc5)c24)CN(C(=O)c2ccc(Br)c(C(F)(F)F)c2)[C@H](C)C3)cn1	HepG2.117	luminescence		≤0.05 µM
CC(C)(C)OC(=O)Nc1cccc(-c2ccc3ncnc(Nc4ccc(N5CCOCC5)cc4)c3c2)c1	HUH 9B	replicon		1–5 µM
COCCCOc1ccc2c(c1Br)S(=O)(=O)C(C)c1cc(C(=O)O)c(=O)n(C3CC3)c1-2	Primary human hepatocytes	antigen / visual reading / absorbance		>0.5 µM
CN1[C@H](C(=O)Nc2ccc(F)c(Cl)c2)C[C@H](c2ncc(-c3cn(C)cn3)s2)NS1(=O)=O	HepG2-NTCP	fluorescence	Genotype D	0.027 µM
Cc1cc(Nc2ncnc3ccc(-c4cccs4)cc23)ccc1N1CCOCC1	HUH 9B	replicon		<1 µM
CNOCc1ccc(-n2c(=O)c3c(n4ncc(Cc5ccccc5)c24)CN(C(=O)c2ccc(Br)c(C(F)(F)F)c2)CC3)cc1	HepG2.117	luminescence		≤0.05 µM
Cc1cc(NC(=O)N2CCc3nn4c(c3C2)C(=O)N(C)CC(F)(c2ccccc2)C4)ccc1F	HepG2.2.15	fluorescence		176 µM
Cc1ccccc1-c1ccc2ncnc(Nc3ccc(N4CCOCC4)cc3)c2c1	HUH 9B	replicon		1–5 µM
C[C@@H]1Cc2nn3c(c2CN1C(=O)Nc1ccc(F)c(C(F)(F)F)c1)C(=O)N(C)C[C@@H](c1ccn[nH]1)C3	HepG2.2.15	fluorescence		280 µM
CC(C)Oc1ccc(-n2c(C(=O)NCc3ccccc3)c3n(c2=O)CCN(C(=O)c2cc4c(Cl)cccc4s2)C3)cc1	HepG2.117	PCR		>5 µM
CCOC(=O)C1=C(C)NC(c2ccccn2)=NC1c1ccccc1Cl	HepG2.2.15			2–3 µM
Cn1nc2cc(NS(=O)(=O)N3[C@@H]4CC[C@H]3CC(O)C4)ccc2c1C(=O)Nc1ccc(F)c(Cl)c1	HepAD38	PCR		100–1000 µM
Cc1nc2c(CNC(=O)c3c4n(c(=O)n3-c3ccc(OCC(F)(F)F)cc3)CCN(C(=O)c3ccc(Br)c(Cl)c3)C4)cccc2o1	HepG2.117	PCR		0.1–0.5 µM
O=C(Nc1ccc(-c2nc3cccc(F)c3o2)cc1)C1COCCO1	Primary human hepatocytes (PHH)	antigen / luminescence		0.96 µM
C[C@@H]1Cc2nn3c(c2CN1C(=O)Nc1ccc(F)c(C#N)c1)C(=O)N(C)C[C@@H](c1ccn[nH]1)C3	HepG2.2.15	fluorescence		260 µM

6 of the rows above, restated:

structure | cells | method | strain or isolate | value
CCCCOC(=O)C1=C(C)NC(c2ccccn2)=NC1c1ccccc1Cl | HepG2.2.15 |  |  | >6 µM
CC(C)Oc1ccc(-n2c(C(=O)NCc3ccccc3)c3n(c2=O)CCN(C(=O)c2cc4c(Cl)cccc4s2)C3)cc1 | HepG2.117 | PCR |  | >5 µM
COC(=O)C1=C(C)NC(c2ccccn2)=NC1c1ccccc1Cl | HepG2.2.15 |  |  | 3 µM
COc1ncc(-c2ccc3ncnc(Nc4ccc(N5CCOCC5)cc4)c3c2)cn1 | HUH 9B | replicon |  | <1 µM
Cc1cc(NC(=O)N2CCc3nn4c(c3C2)C(=O)N(C)CC(F)(c2ccccc2)C4)ccc1F | HepG2.2.15 | fluorescence |  | 176 µM
CCOC(=O)Nc1cc2c(cc1OCCCOC)S(=O)(=O)C(C)c1cc(C(=O)O)c(=O)n(C3CC3)c1-2 | Primary human hepatocytes | antigen / visual reading / absorbance |  | >0.5 µM